According to patent US7544773:

Tested on: ΔCaf1 (Caf1 mutant with a six amino acid deletion close to the N-terminus), Yersinia pestis, P26948 22-170
Test: IEF of periplasmic extracts of E. coli DH5α/pΔFM1

For “ΔCaf1 (Caf1 mutant with a six amino acid deletion close to the N-terminus)”, the result was “no binding”.
